Anti-infective test results gathered from many reports (values: NIAID ChemDB through PubChem).

Common to all: enzyme or target tests; species: Hepatitis C virus; protein: Nonstructural protein 5B; endpoint: inhibition

Inhibition is in % at the dose shown (toxicity tests: loss of growth or viability). Conditions beyond the fields shown may differ between rows.

compound	tested at	result
COc1nc(Nc2ccc3cn[nH]c3c2)nc(NC2CC2)n1	10 µg/mL	83%
Nc1nc(=O)n([C@H]2CO[C@@H](COP(=O)(O)OP(=O)(O)OP(=O)(O)O)O2)cc1F	100 µM	57%
O=C(Nc1ccc2[nH]ncc2c1)c1cc(NCCc2ccccn2)c(F)cc1F	1 µg/mL	32%
COc1nc(NCCCN2CCOCC2)nc(Nc2ccc3cn[nH]c3c2)n1	10 µg/mL	84%
CCN(CCN(C)C)C(=O)CN1CCN(c2cc(Nc3ccc(N4CCOCC4)cc3)nc(SC)n2)CC1	1 µg/mL	70%
O=C(Nc1ccc2cn[nH]c2c1)c1cc(NCCCn2ccnc2)c(F)cc1F	10 µg/mL	76%
Nc1ccn([C@H]2CO[C@@H](COP(=O)(O)OP(=O)(O)OP(=O)(O)O)O2)c(=O)n1	50 µM	85%
CSc1nc(Nc2ccc(N3CCOCC3)cc2)cc(N2CCN(CC(=O)N3CCC(N4CCCCC4)CC3)CC2)n1	1 µg/mL	75%
O=C(Nc1ccc2cn[nH]c2c1)c1cc(NCCc2ccccn2)c(F)cc1F	10 µg/mL	59%
O=C(O)c1ccc(S(=O)(=O)Nc2ccc(N3CCOCC3)cc2)cc1	1 µg/mL	70%
Nc1nc(=O)n([C@@H]2CO[C@H](COP(=O)(O)OP(=O)(O)OP(=O)(O)O)O2)cc1F	100 µM	81%
COc1nc(NCCCn2ccnc2)nc(Nc2ccc3[nH]ncc3c2)n1	1 µg/mL	52%
CCN(CCO)c1cc(C(=O)Nc2ccc3cn[nH]c3c2)c(F)cc1F	0.1 µg/mL	0%
CN(C)C(=O)c1ccc(S(=O)(=O)Nc2ccc(N3CCOCC3)cc2)cc1	1 µg/mL	74%
CCN1CCN(C(=O)CN2CCN(c3cc(Nc4ccc(N5CCOCC5)cc4)nc(SC)n3)CC2)CC1	1 µg/mL	68%
O=C(Nc1ccc2[nH]ncc2c1)c1cc(NCCN2CCCC2)c(F)cc1F	0.1 µg/mL	10%
CSc1nc(Nc2ccc(N3CCOCC3)cc2)cc(N2CCN(CC(=O)NCCN3CCOCC3)CC2)n1	1 µg/mL	68%
CN(C)CCNc1cc(C(=O)Nc2ccc3[nH]ncc3c2)c(F)cc1F	0.1 µg/mL	46%
CSc1nc(Nc2ccc(N3CCOCC3)cc2)cc(N2CCN(CC(=O)NCCN(C)C)CC2)n1	1 µg/mL	73%
O=C(c1ccc(S(=O)(=O)Nc2ccc(N3CCOCC3)cc2)cc1)N(Cc1ccccn1)Cc1ccccn1	0.1 µg/mL	42%
CSc1nc(Nc2ccc(N3CCOCC3)cc2)cc(N2CCN(CC(=O)N3CCN(c4cccc(C(F)(F)F)c4)CC3)CC2)n1	1 µg/mL	65%
Nc1ncn([C@H]2CO[C@@H](COP(=O)(O)OP(=O)(O)OP(=O)(O)O)O2)c(=O)n1	100 µM	8%
CSc1nc(Nc2ccc(N3CCOCC3)cc2)cc(N2CCN(CC(=O)N3CCC(C(N)=O)CC3)CC2)n1	1 µg/mL	72%
O=C(NCCc1cccnc1)c1ccc(S(=O)(=O)Nc2ccc(N3CCOCC3)cc2)cc1	1 µg/mL	68%
COc1nc(NCCc2ccccn2)nc(Nc2ccc3[nH]ncc3c2)n1	10 µg/mL	55%
CCN(CC)CCNC(=O)CN1CCN(c2cc(Nc3ccc(N4CCOCC4)cc3)nc(SC)n2)CC1	1 µg/mL	75%

A second listing of 3 rows from above:

| compound | tested at | result |
|---|---|---|
| COc1nc(NCCCN2CCOCC2)nc(Nc2ccc3cn[nH]c3c2)n1 | 10 µg/mL | 84% |
| COc1nc(Nc2ccc3cn[nH]c3c2)nc(NC2CC2)n1 | 10 µg/mL | 83% |
| CN(C)C(=O)c1ccc(S(=O)(=O)Nc2ccc(N3CCOCC3)cc2)cc1 | 1 µg/mL | 74% |